Results deposited as PubChem BioAssay AID504761 (Drosophila RNAi Screening Center, 2011)

Purpose: 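Insect host genes that dengue virus relies on to spread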 (primary screen)
Cells: D.Mel-2 cells from Drosophila
Knock-down reagent: long dsRNA against Drosophila genes
Challenge: infection with dengue virus type 2; dose and infection time not stated
Read-out: 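Per well on two replicate plates, imaging gave the percent of cells positive for viral envelope protein, ranked by infection, and a nuclear count of cells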
Reading the numbers: infection score: higher = more virus-infected cells; cell count: higher = more cells in the well
Call rule: 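Low infection ranks in the two replicates (chance level up to 0.065) followed by a retest with a 1.5-fold or larger significant decrease, p below 0.05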
Meaning of the calls: active = confirmed: knock-down lowers infection; inactive = not picked or not confirmed
The deposit covers about 22,000 reagents; shown is a random part of those that have a named target and a result. In the full data, 116 (0.52%) are marked active. 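Calls depend on retest data that are not deposited; infection was ranked per plate without normalising between plates; the unit of the infection score is not given.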 Raw values are not corrected between plates. A plus sign joins genes that one reagent is predicted to hit. Reagent sequences are not shown. Not given: the amount of reagent, the time to read-out.

Target gene	dsRNA	infection score, replicate 1	infection score, replicate 2	cell count, replicate 1	cell count, replicate 2	Outcome
CG5715	DRSC15860	1.07	2.19	6091	6129	inactive
CG5715	DRSC26011	5.98	15.6	4712	5784	inactive
Tmem18	DRSC27312	14.3	4.2	6259	6594	inactive
Osi1	DRSC12271	7.48	4.62	6254	6597	inactive
IFT57	DRSC00720	4.28	5.2	6046	6523	inactive
Ccdc58 + CG34116	DRSC10105	2.56	7.72	6408	6125	inactive
CG9154	DRSC03150	6.54	15.9	6317	5503	inactive
net	DRSC00309	3.18	1.44	6443	7275	inactive
Manf	DRSC14091	30.9	29	5424	6144	inactive
stretch (retired record)	DRSC14512	5.25	6.9	6151	6468	inactive
stretch (retired record)	DRSC14541	3.72	4.74	6157	6605	inactive
stretch (retired record)	DRSC14542	5.67	12.3	5664	6070	inactive
stretch (retired record)	DRSC14543	5.96	4.42	6729	7102	inactive
stretch (retired record)	DRSC23038	1.51	6.44	6272	6757	inactive
stretch (retired record)	DRSC28624	11.2	8.78	6002	5774	inactive
stretch (retired record)	DRSC29228	4.69		1108	360	inactive
stretch (retired record)	DRSC36547	5.45	8.61	6610	7025	inactive
CG4424	DRSC15576	1.38	3.7	6894	6293	inactive
fj	DRSC07619	8.35	25.7	6045	4098	inactive
fj	DRSC27535	10.8	19.5	6507	6429	inactive
CG3164	DRSC00572	1.26	12	6661	6653	inactive
Or98P	DRSC22948	3.5	0.43	6487	6531	inactive
Or98P	DRSC25899	1.36	1.49	6315	6635	inactive

Just “cell count, replicate 2” (2 entries from above):
fj [DRSC27535]	6429
CG3164 [DRSC00572]	6653
